PubChem BioAssay AID1224833 | University of Georgia – 2016
In all, the deposit lists about 12,000 reagents; this is a random part of them. About 5,600 of them (46%) count as active. 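Active calls cover z-scores past 1 in both directions, so they include lowered as well as raised rotavirus replication.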

Purpose: 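Human genes whose knock-down alters rotavirus replication in monkey cells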 (primary screen)
System: monkey MA104 kidney cells
Reagent: siRNA pool against human genes, 50 nM
Time to read-out: 48 h knock-down before infection; read 24 h after infection
Conditions: infection with rotavirus strain RV3 two days after transfection; infectious dose for this stage not given
Detection: 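z-score of rotavirus antigen signal per well, from a fluorescent immunoassay, relative to non-targeting control wells on the same plate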
Scale: z-score vs non-targeting control: higher = more rotavirus replication than with non-targeting control
Rule for the call: In these data the active calls have z-score vs non-targeting control at about -1 or lower, or at about 1 or higher
Calls: active = z-score beyond 1 either way; inactive = z-score within 1 of zero

What is on record for OR5T3 (GeneID 390154)?
z-score vs non-targeting control: -0.691; activity call: inactive

With PRLHR (GeneID 2834), how do the results read?
z-score vs non-targeting control: -1.02; activity call: active

How did the screen score TUBB2B (GeneID 347733)?
z-score vs non-targeting control: -1.36; activity call: active

What did the screen give for IST1 (GeneID 9798)?
z-score vs non-targeting control: 0.841; activity call: inactive

What is on record for ANKRD29 (GeneID 147463)?
z-score vs non-targeting control: -0.351; activity call: inactive

What did the screen give for ABHD17B (GeneID 51104)?
z-score vs non-targeting control: -2.13; activity call: active

With NIPA1 (GeneID 123606), how do the results read?
z-score vs non-targeting control: 0.155; activity call: inactive

With PLEKHG2 (GeneID 64857), what was measured?
z-score vs non-targeting control: -1.61; activity call: active

With CNPY3 (GeneID 10695), what was measured?
z-score vs non-targeting control: 1.05; activity call: active

For ZNF347 (GeneID 84671), what was measured?
z-score vs non-targeting control: 1.16; activity call: active

With SERF2 (GeneID 10169), how do the results read?
z-score vs non-targeting control: -0.264; activity call: inactive

For LIMS2 (GeneID 55679), how do the results read?
z-score vs non-targeting control: -0.441; activity call: inactive

For ZNF451 (GeneID 26036), what does the deposit list?
z-score vs non-targeting control: -3.98; activity call: active

How did the screen score WIF1 (GeneID 11197)?
z-score vs non-targeting control: 0.635; activity call: inactive

For ART5 (GeneID 116969), what does the deposit list?
z-score vs non-targeting control: 0.722; activity call: inactive

For RAG2 (GeneID 5897), what was measured?
z-score vs non-targeting control: -0.523; activity call: inactive

With CDIPT (GeneID 10423), what was measured?
z-score vs non-targeting control: -2.92; activity call: active

What did the screen give for SLC35E2A (GeneID 9906)?
z-score vs non-targeting control: -1.21; activity call: active

What is on record for DHH (GeneID 50846)?
z-score vs non-targeting control: 1.65; activity call: active

With MADCAM1 (GeneID 8174), what was measured?
z-score vs non-targeting control: -0.323; activity call: inactive

For NEFM (GeneID 4741), what does the deposit list?
z-score vs non-targeting control: 1.22; activity call: active

For PSAT1 (GeneID 29968), what does the deposit list?
z-score vs non-targeting control: -3.18; activity call: active

How did the screen score PLGLB1 (GeneID 5343)?
z-score vs non-targeting control: -1.26; activity call: active

Reagents listed so far marked active:
PRLHR (GeneID 2834): z-score vs non-targeting control = -1.02; activity call = active
TUBB2B (GeneID 347733): z-score vs non-targeting control = -1.36; activity call = active
ABHD17B (GeneID 51104): z-score vs non-targeting control = -2.13; activity call = active
PLEKHG2 (GeneID 64857): z-score vs non-targeting control = -1.61; activity call = active
CNPY3 (GeneID 10695): z-score vs non-targeting control = 1.05; activity call = active
ZNF347 (GeneID 84671): z-score vs non-targeting control = 1.16; activity call = active
ZNF451 (GeneID 26036): z-score vs non-targeting control = -3.98; activity call = active
CDIPT (GeneID 10423): z-score vs non-targeting control = -2.92; activity call = active
SLC35E2A (GeneID 9906): z-score vs non-targeting control = -1.21; activity call = active
DHH (GeneID 50846): z-score vs non-targeting control = 1.65; activity call = active
NEFM (GeneID 4741): z-score vs non-targeting control = 1.22; activity call = active
PSAT1 (GeneID 29968): z-score vs non-targeting control = -3.18; activity call = active
PLGLB1 (GeneID 5343): z-score vs non-targeting control = -1.26; activity call = active

Additional entries:
What did the screen give for PDE4D (GeneID 5144)?
z-score vs non-targeting control: 0.97; activity call: inactive

What did the screen give for ALG9 (GeneID 79796)?
z-score vs non-targeting control: -1.28; activity call: active

For NCDN (GeneID 23154), what was measured?
z-score vs non-targeting control: 2.56; activity call: active

With RIC8B (GeneID 55188), how do the results read?
z-score vs non-targeting control: 1.31; activity call: active

Which result is listed for LPP (GeneID 4026)?
z-score vs non-targeting control: 0.367; activity call: inactive

What is on record for NSFL1C (GeneID 55968)?
z-score vs non-targeting control: -0.536; activity call: inactive

What did the screen give for TEX15 (GeneID 56154)?
z-score vs non-targeting control: -1.81; activity call: active

Which result is listed for DHX34 (GeneID 9704)?
z-score vs non-targeting control: -1.95; activity call: active

What is on record for KRTAP25-1 (GeneID 100131902)?
z-score vs non-targeting control: 1.12; activity call: active

What is on record for CALML4 (GeneID 91860)?
z-score vs non-targeting control: 1.03; activity call: active

How did the screen score CPXM1 (GeneID 56265)?
z-score vs non-targeting control: 0.81; activity call: inactive

With TDRP (GeneID 157695), what was measured?
z-score vs non-targeting control: 0.504; activity call: inactive

How did the screen score NDP (GeneID 4693)?
z-score vs non-targeting control: -0.902; activity call: inactive

What is on record for GPR151 (GeneID 134391)?
z-score vs non-targeting control: 1.6; activity call: active

With GPR155 (GeneID 151556), how do the results read?
z-score vs non-targeting control: 1.14; activity call: active

Which result is listed for TOM1 (GeneID 10043)?
z-score vs non-targeting control: 0.594; activity call: inactive

For ZNF669 (GeneID 79862), what does the deposit list?
z-score vs non-targeting control: 1.58; activity call: active

How did the screen score FGFR1OP2 (GeneID 26127)?
z-score vs non-targeting control: -2.1; activity call: active

Which result is listed for SH2D1B (GeneID 117157)?
z-score vs non-targeting control: -0.543; activity call: inactive

For COL3A1 (GeneID 1281), what was measured?
z-score vs non-targeting control: -0.793; activity call: inactive

For RUSF1 (GeneID 64755), what was measured?
z-score vs non-targeting control: -0.675; activity call: inactive

For ZMYND10 (GeneID 51364), what was measured?
z-score vs non-targeting control: -2.49; activity call: active

What is on record for NTF4 (GeneID 4909)?
z-score vs non-targeting control: -0.669; activity call: inactive

For HOATZ (GeneID 399949), what does the deposit list?
z-score vs non-targeting control: -0.987; activity call: inactive

For SLC25A27 (GeneID 9481), what does the deposit list?
z-score vs non-targeting control: -1.39; activity call: active

For KRTAP19-3 (GeneID 337970), what was measured?
z-score vs non-targeting control: -1.56; activity call: active

For AKR1E2 (GeneID 83592), what was measured?
z-score vs non-targeting control: -0.881; activity call: inactive

With ARHGEF18 (GeneID 23370), how do the results read?
z-score vs non-targeting control: -0.682; activity call: inactive

For NECAP2 (GeneID 55707), what was measured?
z-score vs non-targeting control: -2.44; activity call: active

What did the screen give for GTPBP2 (GeneID 54676)?
z-score vs non-targeting control: 0.737; activity call: inactive

For CYP27A1 (GeneID 1593), what was measured?
z-score vs non-targeting control: -0.897; activity call: inactive

What did the screen give for FAM89B (GeneID 23625)?
z-score vs non-targeting control: 0.951; activity call: inactive

What did the screen give for ANKRD13C-DT (GeneID 11147)?
z-score vs non-targeting control: -0.244; activity call: inactive

For MXD4 (GeneID 10608), what does the deposit list?
z-score vs non-targeting control: -1; activity call: active

Which result is listed for MESP2 (GeneID 145873)?
z-score vs non-targeting control: -0.467; activity call: inactive

Which result is listed for ERP44 (GeneID 23071)?
z-score vs non-targeting control: -1.54; activity call: active

How did the screen score OR4C15 (GeneID 81309)?
z-score vs non-targeting control: -0.647; activity call: inactive
